The numbers were not newly measured in publication PMC11768433 (Viruses, 2024), which cites them from elsewhere.

The subject of one data set is HIV-1. Set-up: method as in Ref.17448989. Conditions: HIV-1 infection, P4-CCR5 cells; ref Ref.17448989.
A further data set addresses HIV-1 integrase. Set-up: method as in Ref.12054767. Conditions: 3′-end processing catalyzed by HIV-1 integrase; ref Ref.12054767.
A further data set has as its system HIV-1 HXB2. Set-up: method as in Ref.30089693. Conditions: HIV-1 HXB2 cell-cell fusion, TZM-bl; ref Ref.30089693.
The next data set deals with HIV-1 JRCSF. Set-up: method as in Ref.30089693. Conditions: HIV-1 JRCSF infection, TZM-bl; ref Ref.30089693.
Data set [1] has as its system HIV-1(3 A, 13 B, 7 C, 1 G, 1 A/C, 5 A/E, 6 B/C pseudovirus subtypes). Also on record: method as in Ref.30089693. Conditions: panel of HIV-1 pseudovirus subtypes, TZM-bl; ref Ref.30089693.
In data set [2] the test system is HIV-2(ROD,ST). Also on record: method as in Ref.30089693. Conditions: TZM-bl, ref Ref.30089693.
Data set [3] relates to T-20 sensitive HIV-1(NL4-3D36G). Set-up: method as in Ref.30089693. Conditions: T-20 sensitive NL4-3D36G, TZM-bl; ref Ref.30089693.
For the next data set, the system named is HIV-1 NL4-3 pseudovirus. Also on record: method as in Ref.30089693. Conditions: TZM-bl, ref Ref.30089693.
A further data set relates to SARS-CoV-2. Set-up: method as in Ref.35216177. Conditions: SARS-CoV-2 replication, Vero cells; ref Ref.35216177.
The test system of another data set is HIV Pseudovirus (PsV). Set-up: method as in Ref.26026377. Conditions: HIV PsV infection, CD4+ T cells; ref Ref.26026377.
The subject of another data set is HIV-1 Vif proteins. Also on record: method as in Ref.12480936. Conditions: Vif-Vif binding; ref Ref.12480936.
Data set [4] deals with human immunodeficiency virus type 1 (HIV-1). Set-up: method as in Ref.15780876. Conditions: HIV-1 infection, Vero P4-CCR5 cells; ref Ref.15780876.
Data set [5] deals with Influenza A virus(A/Hong Kong/483/97 ([HK/483] strain H5N1)).
For data set [6] the test system is unchanged. The source holds these as a separate data set.
Data set [7] has as its system T-20 sensitive HIV-1(NL4-3D36G). Set-up: method as in Ref.30867304. Conditions: T-20 sensitive NL4-3D36G, TZM-bl; ref Ref.30867304.
In the next data set the test system is HIV-1 JR-CSF(R5). Also on record: method as in Ref.30867304. Conditions: HIV-1 JR-CSF(R5) replication, TZM-bl; ref Ref.30867304.
A further data set has as its system HIV-1 89.6(R5X4). Also on record: method as in Ref.30867304. Conditions: HIV-1 89.6(R5X4) replication, TZM-bl; ref Ref.30867304.
For data set [8], the system named is HIV-1(1A,2B,1C,1G,1A/C,1A/E,1B/C subtype). Set-up: method as in Ref.30867304. Conditions: cell-cell fusion HEK293T / TZM-bl, HIV-1 subtypes; ref Ref.30867304.
The next data set has as its system HIV-1 pseudovirus. Also on record: method as in Ref.30867304. Conditions: HIV-1 pseudovirus infection, TZM-bl; ref Ref.30867304.
Data set [9] concerns HIV-2(ROD,ST). Set-up: method as in Ref.30867304. Conditions: TZM-bl, range, ref Ref.30867304.
The subject of data set [10] is influenza virus(H1N1,VR-1894). Set-up: method as in Ref.35216177. Conditions: influenza H1N1 VR-1894 replication, MDKC cells; ref Ref.35216177.

Like-named read-outs stand apart in the source and are kept apart here. Some results are limits rather than exact numbers.

As a reminder, the IC50 is the concentration at which inhibition is half-maximal. As for LEAIPMSIPPEFLFGKPFVF [DRAVPe00223], the IC50 with HIV-1 was 1340 ± 420 nM.
As for “YQLAIRMIYKNI [DRAVPe00098, DRAVP database peptide, target HIV-1 integrase]”, the IC50 at HIV-1 integrase is 14000 nM.
With IEELLKKAEEQQKKNEEELKKLEX [DRAVPe00660], the IC50 in the data set on HIV-1 HXB2 is 0.014 ± 0.003 nM; with HIV-1 JRCSF, 0.007 ± 0.002 nM; in [1], 0.035 nM; in the data set with HIV-2(ROD,ST) [2] it was 0.23 to 0.75 nM; in data set [3] it was less than 0.01 nM; in the data set on HIV-1 NL4-3 pseudovirus, 0.008 ± 0.003 nM.
For the substance “FVPWFSKFlGRIL [DRAVPe00377, DRAVP database entry, TL peptide]”, the IC50 in the data set on SARS-CoV-2 is 4620 nM.
For “YQALIRMIYKNI [DRAVPe00097, DRAVP database peptide, target HIV-1 integrase]”, the IC50 on HIV-1 integrase was 165000 nM.
As for LEAIPCSIPpCFLFNKPFVF [DRAVPe00227], the IC50 in the data set with HIV-1 is 200 ± 40 nM.
As to LEAIPCSIPPCVFFNKPFVF [DRAVPe00221], the IC50 with HIV-1 was 930 ± 50 nM.
As to “QLLIRMI [DRAVPe00092, DRAVP database peptide, target HIV-1 integrase]”, the IC50 on HIV-1 integrase was more than 200000 nM.
Consider “LEANIEELLKKAEEQQKKNEEELKKLEX [DRAVPe00784]”, for which the IC50 with HIV-1 HXB2 was 0.021 ± 0.01 nM; in the data set with HIV-1 JRCSF it was 0.027 ± 0.005 nM; in the data set on HIV-2(ROD,ST) [2] it was 0.09 to 0.84 nM; in data set [3], less than 0.01 nM; in the data set on HIV-1 NL4-3 pseudovirus it was 0.006 ± 0.001 nM.
For the substance “FVPWFSKFlwRIL [DRAVPe00386, DRAVP database entry, TL peptide]”, the IC50 with SARS-CoV-2 is 4070 nM.
Turning to “YQLLIRMIYANI [DRAVPe00104, DRAVP database peptide, target HIV-1 integrase]”, the IC50 on HIV-1 integrase was 11000 nM.
Turning to “FVPWFSKFlKRIL [DRAVPe00383, DRAVP database entry, TL peptide]”, in the data set on SARS-CoV-2, the IC50 is 880 nM.
With “FVPWFSKFlWRIL [DRAVPe00385, DRAVP database entry, TL peptide]”, the IC50 with SARS-CoV-2 is 880 nM.
In the case of “YQLLIRPIYKNI [DRAVPe00110, DRAVP database peptide, target HIV-1 integrase]”, on HIV-1 integrase, the IC50 was more than 200000 nM.
On to “WEQKIEELLKKAEEQQKKNEEELKKLEX [DRAVPe00785]”, for which the IC50 with HIV-1 HXB2 is 0.013 ± 0.001 nM; with HIV-1 JRCSF, 0.005 ± 0.001 nM; in [1], 0.017 nM; in the data set on HIV-2(ROD,ST) [2], 0.06 to 0.34 nM; in [3], less than 0.01 nM; in the data set with HIV-1 NL4-3 pseudovirus, 0.004 nM.
With “GLFKVLGSVAKHLLPHVAPVIAEKL [DRAVPe00356, DRAVP database peptide, target HIV]”, the IC50 in the data set on HIV Pseudovirus (PsV) is 2500 nM.
“GLLSVLGSVVKHVIPHVVPVIAEHL [DRAVPe00360, DRAVP database peptide, target HIV]”: in the data set on HIV Pseudovirus (PsV), the concentration for half-maximal inhibition (IC50) was 3000 nM.
With “LPLPAPSFHRTT [DRAVPe00128, DRAVP database peptide, target HIV-1 Vif proteins]”, the IC50 in the data set with HIV-1 Vif proteins is 4840 nM.
As for LEAIPMSIPPEVKFNKPFVF [DRAVPe00192], the IC50 in the data set on HIV-1 was 14800 ± 2560 nM.
On to “ALWKTLLKKVLKAAAK [DRAVPe01957, DRAVP database peptide, target HIV]”, for which, in data set [4], the IC50 was 28000 nM.
As for “FVPWFSKFlxRIL [DRAVPe00382, DRAVP database entry, TL peptide]”, the IC50 in the data set on SARS-CoV-2 is 1000 nM.
Turning to “SNQGGSPLPRSV [DRAVPe00127, DRAVP database peptide, target HIV-1 Vif proteins]”, the IC50 in the data set on HIV-1 Vif proteins was 7430 nM.
With LEAIPMGIPpEVXFNKPFVF [DRAVPe00228], in the data set with HIV-1, the IC50 is 280 ± 80 nM.
As for RRKKAAVALLPAVLLALLAP [DRAVPe01891], the IC50 was 4500 nM in data set [5] and 8000 nM in data set [6].
For the substance “YTSLIHSLIEESQNQQEKNEQELLELDX [DRAVPe00782]”, the IC50 in the data set with HIV-1 HXB2 is 0.361 ± 0.06 nM; with HIV-1 JRCSF it was 0.384 ± 0.033 nM; with HIV-1 NL4-3 pseudovirus, 0.392 ± 0.073 nM.
Turning to “KPKQIKPPLPSV [DRAVPe00130, DRAVP database peptide, target HIV-1 Vif proteins]”, in the data set on HIV-1 Vif proteins, the IC50 is 17400 nM.
For “QLLIRMIYKNILFYLVPGPGHGAEPERRNIKYL [DRAVPe00090, DRAVP database peptide, target HIV-1 integrase]”, the IC50 at HIV-1 integrase was 9000 nM.
As to “FVPWFSKFlkRIL [DRAVPe00384, DRAVP database entry, TL peptide]”, in the data set on SARS-CoV-2, the IC50 is 4630 nM.
As for KVINPEPIVEPFMSKPFALF [DRAVPe00230], the IC50 with HIV-1 was more than 100000 nM.
For “WEQKIEELLKKAEEQQKKNEEELKKLEKX [DRAVPe00787]”, the IC50 is 0.002 nM in [7]; 0.00454 ± 0.00142 nM in the data set with HIV-1 JR-CSF(R5); 0.00475 ± 0.00083 nM with HIV-1 89.6(R5X4); 0.00855 nM in data set [8]; 0.00291 nM with HIV-1 pseudovirus; 0.02 to 0.032 nM in the data set with HIV-2(ROD,ST) [9].
As for LEAIPCSIPPCFAFNKPFVF [DRAVPe00222], the IC50 in the data set with HIV-1 is 270 ± 40 nM.
In the case of IEELIKKSEEQQKKNEEELKKLEX [DRAVPe00656], the IC50 in the data set with HIV-1 HXB2 is 0.085 ± 0.009 nM; in the data set on HIV-1 JRCSF, 0.126 ± 0.063 nM; in [1] it was 0.144 nM; in the data set with HIV-1 NL4-3 pseudovirus, 0.043 ± 0.009 nM.
For “QLLIRMIYKNI [DRAVPe00109, DRAVP database peptide, target HIV-1 integrase]”, the IC50 at HIV-1 integrase was 21000 nM.
On to “ALWMTLLKKVLKAAAKAALNAVLVGANA [DRAVPe01956, DRAVP database peptide, target HIV]”, for which, in data set [4], the IC50 was 2000 nM.
Turning to “FVPWFSKFlXRIL [DRAVPe00396, DRAVP database entry, TL peptide]”, the figures for the IC50 (in [10]; with SARS-CoV-2) were 4770 nM and 770 nM, respectively.
As to “FVPWFSKFlXRILC [DRAVPe00389, DRAVP database entry, TL peptide]”, the results for the IC50 (in data set [10]; in the data set on SARS-CoV-2) were 5550 nM and 3180 nM, respectively.
For “GLFSVLGAVAKHVLPHVVPVIAEKL [DRAVPe00355, DRAVP database peptide, target HIV]”, the IC50 in the data set with HIV Pseudovirus (PsV) was 2000 nM.
On to “FVPWFSKFlXRILGGC [DRAVPe00390, DRAVP database entry, TL peptide]”, for which the values for the IC50 (in data set [10]; in the data set with SARS-CoV-2) were 21100 nM and 12100 nM, respectively.
As to “LSELDDRADALQAGASQFETSAAKLKRKYWWKN [DRAVPe00111, DRAVP database peptide, target HIV-1 integrase]”, on HIV-1 integrase, the IC50 is more than 200000 nM.
For “FVPWFSKFlXRIL [DRAVPe00380, DRAVP database entry, TL peptide]”, the IC50 in the data set on SARS-CoV-2 is 6720 nM.
Take “LFYLVPGPGH [DRAVPe00094, DRAVP database peptide, target HIV-1 integrase]”: the IC50 on HIV-1 integrase is more than 200000 nM.
What is called IC90 is the concentration at which the effect reaches the 90% level. Regarding “FVPWFSKFlpRIL [DRAVPe00379, DRAVP database entry, TL peptide]”, in the data set on SARS-CoV-2, the IC50 was more than 50000 nM and the concentration for an effect of 90% (IC90) is more than 50000 nM.
Turning to “YTSLIEELIKKSEEQQKKNEEELKKLEX [DRAVPe00783]”, the IC50 was 0.021 ± 0.003 nM in the data set on HIV-1 HXB2; 0.023 ± 0.002 nM in the data set with HIV-1 JRCSF; 0.09 to 5.81 nM with HIV-2(ROD,ST) [2]; less than 0.01 nM in data set [3]; 0.007 ± 0.001 nM in the data set on HIV-1 NL4-3 pseudovirus.
Regarding “CGGFVPWFSKFlXRIL [DRAVPe00392, DRAVP database entry, TL peptide]”, the IC50 in data set [10] was 6020 nM; with SARS-CoV-2 it was 1020 nM.
Take “FVPWFSKFlPRIL [DRAVPe00378, DRAVP database entry, TL peptide]”: the IC50 with SARS-CoV-2 was 4820 nM.
Consider “CFVPWFSKFlXRIL [DRAVPe00391, DRAVP database entry, TL peptide]”, for which the IC50 in data set [10] was 2550 nM; with SARS-CoV-2 it was 760 nM.
